PSTVd loop 6 mutant pool in Nicotiana benthamiana

The measurements come from Wu et al. 2024 (doi:10.1371/journal.ppat.1012142).

The pool varies loop 6 of the PSTVd intermediate strain in the pattern UNNNCGNNNG; wild type is UGACCGCGAG (upper and lower strand joined, each 5' to 3', the first 5 letters being the upper strand, closing pairs included).

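A pool of all variants was put on leaves of three Nicotiana benthamiana plants. Samples came from the inoculated region at 5 days, the leaf margin at 10 and upper systemic leaves at 12.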

Values are reads per thousand in the sample; higher means more abundant, 0 means not found.
Each site shows the three plants.
"Pool" is the share in the plasmid pool used as inoculum, on the same scale.
The inoculated region was read from the minus strand, the other sites from the plus strand.
IR is the inoculated region, LM the leaf margin, Sys the systemic leaves.

sequence | pool | IR | LM | Sys
UAGUCGUAAG | 0.118 | 0.122 / 0.0898 / 0.0553 | 0 / 0 / 0 | 0 / 0 / 0
UAGUCGUACG | 0.170 | 0.122 / 0.0719 / 0.0738 | 0.0552 / 0 / 0 | 0 / 0 / 0
UAGUCGUAGG | 0.288 | 0.0695 / 0.0898 / 0.0369 | 0 / 0 / 0.0232 | 0 / 0 / 0
UAGUCGUAUG | 0.301 | 0.122 / 0.0898 / 0.0738 | 0.221 / 0 / 0 | 0 / 0 / 0
UAGUCGUCAG | 0.248 | 0.191 / 0.126 / 0.0184 | 0 / 0 / 0 | 0 / 0 / 0
UAGUCGUCCG | 0.248 | 0.0869 / 0.0180 / 0.0922 | 0 / 0 / 0 | 0 / 0 / 0
UAGUCGUCGG | 0.288 | 0.104 / 0.0539 / 0.0553 | 0 / 0 / 0.0232 | 0 / 0 / 0
UAGUCGUCUG | 0.275 | 0.0521 / 0.0719 / 0.148 | 0 / 0 / 0 | 0 / 0.0202 / 0
UAGUCGUGAG | 0.248 | 0.139 / 0.0719 / 0.0922 | 0.0276 / 0 / 0 | 0 / 0 / 0.0205
UAGUCGUGCG | 0.105 | 0.104 / 0.126 / 0.0738 | 0.0276 / 0 / 0.0464 | 0 / 0 / 0
UAGUCGUGGG | 0.118 | 0.0695 / 0.0180 / 0.111 | 0 / 0 / 0 | 0 / 0 / 0
UAGUCGUGUG | 0.288 | 0.139 / 0.0359 / 0.0738 | 0 / 0 / 0 | 0 / 0 / 0
UAGUCGUUAG | 0.301 | 0.104 / 0.144 / 0.0922 | 0 / 0 / 0.0232 | 0 / 0 / 0
UAGUCGUUCG | 0.340 | 0.0869 / 0.0359 / 0.0553 | 0.0276 / 0 / 0 | 0 / 0 / 0
UAGUCGUUGG | 0.340 | 0.174 / 0.0898 / 0.0738 | 0 / 0 / 0.0232 | 0 / 0 / 0
UAGUCGUUUG | 0.248 | 0.0348 / 0.0539 / 0.0738 | 0 / 0 / 0.0232 | 0 / 0 / 0
UAUACCGCAG | 0.0131 | 0 / 0 / 0 | 0 / 0 / 0 | 0 / 0 / 0
UAUACGAAAG | 0.118 | 0.156 / 0.0180 / 0.0553 | 0 / 0 / 0.0232 | 0 / 0 / 0
UAUACGAACG | 0.340 | 0.104 / 0.126 / 0.111 | 0.0276 / 0 / 0 | 0 / 0 / 0.0205
UAUACGAAGG | 0.209 | 0.139 / 0.0898 / 0.111 | 0.0276 / 0 / 0 | 0 / 0 / 0
UAUACGAAUG | 0.392 | 0.191 / 0.162 / 0.0922 | 0 / 0 / 0.0232 | 0 / 0 / 0
UAUACGACAG | 0.222 | 0.156 / 0.108 / 0.111 | 0.0276 / 0 / 0.0464 | 0 / 0 / 0
UAUACGACCG | 0.209 | 0.104 / 0.0719 / 0.184 | 0 / 0 / 0.0232 | 0 / 0 / 0
UAUACGACGG | 0.314 | 0.0695 / 0.0898 / 0.0738 | 0 / 0 / 0.0464 | 0 / 0 / 0
UAUACGACUG | 0.288 | 0.156 / 0.0898 / 0.0553 | 0 / 0 / 0.0232 | 0 / 0 / 0
UAUACGAGAG | 0.340 | 0.122 / 0.126 / 0.111 | 0 / 0.0252 / 0.0232 | 0 / 0 / 0
UAUACGAGCG | 0.261 | 0.886 / 0.736 / 0.572 | 0.110 / 0.0757 / 0.0232 | 0 / 0 / 0
UAUACGAGGG | 0.340 | 0.139 / 0.0898 / 0.111 | 0 / 0 / 0 | 0 / 0 / 0
UAUACGAGUG | 0.484 | 0.139 / 0.269 / 0.0738 | 0 / 0.0757 / 0.0232 | 0 / 0 / 0
UAUACGAUAG | 0.340 | 0.174 / 0.126 / 0.0369 | 0 / 0 / 0.162 | 0 / 0 / 0
UAUACGAUCG | 0.314 | 0.104 / 0.0719 / 0.0738 | 0.0276 / 0 / 0.0232 | 0 / 0 / 0
UAUACGAUGG | 0.392 | 0.122 / 0.0898 / 0.0738 | 0 / 0 / 0 | 0 / 0 / 0
UAUACGAUGU | 0.0131 | 0 / 0 / 0 | 0 / 0 / 0 | 0 / 0 / 0
UAUACGAUUG | 0.588 | 0.0869 / 0.0898 / 0.0553 | 0 / 0 / 0 | 0 / 0 / 0
UAUACGCAAG | 0.118 | 0.765 / 0.593 / 0.645 | 0 / 0.0504 / 0.0464 | 0 / 0.101 / 0
UAUACGCACG | 0.248 | 0.191 / 0.0359 / 0.0738 | 0 / 0 / 0.0232 | 0 / 0 / 0
UAUACGCAGG | 0.235 | 0.122 / 0.0898 / 0.111 | 0 / 0 / 0 | 0 / 0 / 0
UAUACGCAUG | 0.301 | 0.0869 / 0.108 / 0.111 | 0 / 0 / 0 | 0 / 0 / 0

Samples held 36,220 to 57,551 reads, so the smallest values rest on one or two reads.
Sequences that differ at fixed positions probably stem from PCR or sequencing errors, and defective variants can be carried along by functional ones.
For reference, wild type rose from 20.7 per thousand in the pool to 195, 198, 203 (inoculated region), 629, 591, 734 (leaf margin) and 942, 870, 868 (systemic leaves).